System: HFB4 normal human skin cell line
Test: Biocompatibility, MTT assay
Format: cell-based
Settings: 560 nm
Method: A complete monolayer sheet was created by incubating the 96-well tissue culture plate at 37 °C for 24 h following inoculation with 1 × 10^5 cells/ml (100 µl/well), following the procedure described by. Following the establishment of a confluent sheet of cells, the growth material was collected from the 96-well micro titer plates, and the cell monolayer underwent two washing media washes. […] They then evaluated 0.1 ml of each dilution in several wells. We looked at the cells for physical signs of toxicity, including granulation, rounding, shrinkage, and partial or complete loss of the monolayer. Following the phosphate buffer solution’s preparation, each well received 20 µl of a 5 mg/ml MTT (3-(4,5-dimethylthiazol-2-yl-)-2,5 diphenyltetrazolium bromide) solution from Bio Basic Canada Inc. After that, place it on a shaking table and shake it for five minutes at 150 rpm to completely integrate the MTT. to allow MTT to metabolize, followed by incubation for 4 h at 37 °C with 5% CO2. Media was taken out if necessary, and paper towels were used to wipe out any remaining material from the plate. One may re-dissolve formazan, a metabolic product of MTT, in 200 µL of DMSO. Put on a shaking table and shaken for five minutes at 150 rpm to fully mix the formazan and solvent. At 560 nm, optical density was measured, and at 620 nm, background was subtracted. There should be a direct relationship between optical density and cell number.3 [drawing 3]

In the case of `COc1ccc(NC(=O)/C(C#N)=C/c2cn(-c3ccccc3)nc2-c2ccccc2)cc1` [3b], the “Mean O.D” value (31.25 µg/ml) is reported as 0.5607, the “Mean O.D” value (62.5 µg/ml) is reported as 0.564 and the “Mean O.D” value (125 µg/ml) is reported as 0.5637. The “Mean O.D” value (250 µg/ml) was 0.5643, the “Mean O.D” value (500 µg/ml) was 0.5643 and the “Mean O.D” value (1000 µg/ml) was 0.563.
